Results of unrelated studies side by side (data: NIAID ChemDB).

All rows: toxicity to cultured cells; cell line: MT-4; measure: CC50

Rows are shuffled and stem from different studies. CCn: concentration that lowers growth or viability of the cells by n%. Blank or dashed fields: not listed here.

| compound | method | result |
|---|---|---|
| CN=C1CN=C(c2ccc[nH]2)c2cc(Cl)ccc2N1 |  | 46 µM |
| Cc1cn([C@H]2CC[C@@H](COP(=O)(OC[C@@H]3CC[C@H](n4cc(C)c(=O)[nH]c4=O)O3)Oc3ccc(S(C)(=O)=O)cc3)O2)c(=O)[nH]c1=O | trypan blue | >250 µM |
| CCC(C)Oc1nc(Cc2cc(C)cc(C)c2)c(C)c(=O)[nH]1 |  | >333 µM |
| COCCOCn1c(Sc2cccc3ccccc23)c(C(C)C)c(=O)[nH]c1=O | MTT | 35.58 µM |
| O=c1ccn([C@H]2CC[C@@H](CO)O2)c(=O)[nH]1 | trypan blue | >500 µM |
| Cc1cc(C)c(Nc2nc(NC3CCN(Cc4ccccc4)CC3)nc3nc[nH]c23)c(C)c1 | MTT | 25.95 µM |
| Cc1cccc(Cc2cc(=O)[nH]c(OC(C)C)n2)c1 |  | 263 µM |
| O=C(c1ccccc1)c1ccc2nc3n(c2c1)C(c1c(F)cccc1Cl)SC3 |  | 1.2 µM |
| Cc1cn([C@H]2C[C@H](N=[N+]=[N-])[C@@H](CO)O2)c(=O)[nH]c1=O | MTT | >7.48 µM |
| CCOCn1c(Sc2ccc3ccccc3c2)c(C(C)C)c(=O)[nH]c1=O | MTT | 36.3 µM |
| CSc1ccc(OP(=O)(OC[C@@H]2CC[C@H](n3cnc4c(N)ncnc43)O2)OC[C@@H]2CC[C@H](n3cnc4c(N)ncnc43)O2)cc1 | trypan blue | >250 µM |
| CC(C)c1c(Sc2cccc3ccccc23)n(COCC2CCCCC2)c(=O)[nH]c1=O | MTT | 172 µM |
| Cc1cccc(Cc2nc(OCC(C)C)[nH]c(=O)c2C)c1 |  | 210 µM |
| CS(=O)(=O)c1ccc(OP(=O)(OC[C@@H]2C=C[C@H](n3ccc(N)nc3=O)O2)OC[C@@H]2C=C[C@H](n3ccc(N)nc3=O)O2)cc1 | trypan blue | 232 µM |
| CCc1c(Sc2ccc3ccccc3c2[N+](=O)[O-])n(COC)c(=O)[nH]c1=O | MTT | 50.13 µM |
| Cc1cccc2nc3n(c12)C(c1c(F)cccc1F)SC3 |  | 21.5 µM |
| CCc1c(Sc2ccc3ccccc3c2[N+](=O)[O-])n(COCc2ccccc2)c(=O)[nH]c1=O | MTT | 34.19 µM |
| Cc1cc(C)cc(Cc2cc(=O)[nH]c(OC(C)C)n2)c1 |  | >367 µM |
| C=C1[C@H](CO)[C@@H](O)C[C@@H]1n1cnc2c(=O)[nH]c(N)nc21 | MTT | 2.16 µM |
| C[C@H](CCC(=O)O)[C@H]1CC[C@H]2C3[C@@H](O)C[C@@H]4C[C@H](O)CC[C@]4(C)[C@H]3CC[C@]12C |  | 143 µg/mL |
| Cc1cc(C)c(Nc2nc(NC3CCN(Cc4ccccc4F)CC3)nc3nc[nH]c23)c(C)c1 | MTT | 23.61 µM |
| CCc1c(Sc2ccc3ccccc3c2N)n(COCc2ccccc2)c(=O)[nH]c1=O | MTT | >37.88 µM |
| Cc1cn([C@H]2CC[C@@H](CO)O2)c(=O)[nH]c1=O | trypan blue | >500 µM |
| C=S(=C)(C)c1ccc(CN2CCC(Nc3nc(Nc4c(C)cc(C)cc4C)c4[nH]cnc4n3)CC2)cc1 | MTT | 34.64 µM |
| CCOCn1c(Sc2ccc3ccccc3c2[N+](=O)[O-])c(CC)c(=O)[nH]c1=O | MTT | 43.89 µM |
| CS(=O)(=O)c1ccc(OP(=O)(OC[C@@H]2C=C[C@H](n3ccc(=O)[nH]c3=O)O2)OC[C@@H]2C=C[C@H](n3ccc(=O)[nH]c3=O)O2)cc1 | trypan blue | >250 µM |
| C[C@H](CCC(=O)O)[C@H]1CC[C@H]2[C@@H]3[C@H](O)C[C@@H]4C[C@H](OS(=O)(=O)O)CC[C@]4(C)[C@H]3C[C@H](O)[C@]12C |  | >500 µg/mL |
| Fc1cc2nc3n(c2cc1F)C(c1c(F)cccc1F)SC3 |  | 37.3 µM |
| CCc1c(Sc2cccc3ccccc23)n(COCc2cccc(C)c2)c(=O)[nH]c1=O | MTT | 28.73 µM |
| C[C@H](CCC(=O)O)[C@H]1CC[C@H]2C3[C@H](OS(=O)(=O)O)C[C@@H]4C[C@H](OS(=O)(=O)O)CC[C@]4(C)[C@H]3CC[C@]12C |  | >500 µg/mL |
| C=C1[C@H](CO)[C@@H](O)C[C@@H]1n1cnc2c(=O)[nH]c(N)nc21 | MTT | >4.59 µM |
| Cc1cccc2c1nc1n2C(c2c(F)cccc2F)SC1 |  | 49.6 µM |
| C[C@H](CCC(=O)O)[C@H]1CC[C@H]2[C@@H]3CC[C@@H]4C[C@H](O)CC[C@]4(C)[C@H]3CC[C@]12C |  | 47 µg/mL |
| CS(=O)(=O)c1ccc(OP(=O)(OC[C@@H]2C=C[C@H](n3cnc4c(N)ncnc43)O2)OC[C@@H]2C=C[C@H](n3cnc4c(N)ncnc43)O2)cc1 | trypan blue | >250 µM |
| Fc1ccc2nc3n(c2c1)C(c1c(F)cccc1F)SC3 |  | 162.6 µM |
| Cc1cc(C#N)cc(C)c1Oc1nc(N/N=C/C2CCN(Cc3ccc(S(=O)(=O)N4CCOCC4)cc3)CC2)nc2ccsc12 | MTT | 14.5 µM |
| COc1ccc2nc3n(c2c1)C(c1c(F)cccc1F)SC3 |  | >392 µM |
| Cc1cc(C#N)cc(C)c1Oc1nc(N/N=C/c2ccc(C#N)cc2F)nc2ccsc12 | MTT | 182 µM |
| CS(=O)(=O)c1ccc(OP(=O)(OC[C@@H]2CC[C@H](n3cnc4c(=O)[nH]cnc43)O2)OC[C@@H]2CC[C@H](n3cnc4c(=O)[nH]cnc43)O2)cc1 | trypan blue | >250 µM |

5 of the rows above, restated:

compound | method | result
Cc1cc(C)c(Nc2nc(NC3CCN(Cc4ccccc4)CC3)nc3nc[nH]c23)c(C)c1 | MTT | 25.95 µM
Cc1cc(C)c(Nc2nc(NC3CCN(Cc4ccccc4F)CC3)nc3nc[nH]c23)c(C)c1 | MTT | 23.61 µM
CCOCn1c(Sc2ccc3ccccc3c2)c(C(C)C)c(=O)[nH]c1=O | MTT | 36.3 µM
O=C(c1ccccc1)c1ccc2nc3n(c2c1)C(c1c(F)cccc1Cl)SC3 |  | 1.2 µM
CCC(C)Oc1nc(Cc2cc(C)cc(C)c2)c(C)c(=O)[nH]1 |  | >333 µM